Data on 1 substance can be found in publication PMC11741003 (ACS Chemical Neuroscience, 2024).

The chains behind the UniProt entries cited, without tags or fusion partners. Residues count along the entry.
UniProt P04925, 23-230 limits assumed: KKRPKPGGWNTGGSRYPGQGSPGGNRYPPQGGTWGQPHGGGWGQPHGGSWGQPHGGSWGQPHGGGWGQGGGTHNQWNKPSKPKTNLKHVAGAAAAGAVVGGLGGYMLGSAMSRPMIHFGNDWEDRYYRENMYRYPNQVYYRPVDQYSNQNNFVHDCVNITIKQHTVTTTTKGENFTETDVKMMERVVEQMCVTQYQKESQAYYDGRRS

For one test, the target named is rPrP (Mus musculus, UniProt P04925). The settings on record: 1 equiv of peptide added to Cu2+-rPrP; 100 µM 15N-rPrP, 25 mM MES, pH 6.6, 37 °C.
The test system of test [1] is PrP^C and NMDARs in SK-N-SH cells. In kind it is cell-based, human. The settings on record: n = 4–6.

As for NH2-EFRHDSGYEVHHQK-Am [Aβ(4–16)], the “Effect on the Cu2+-promoted cis-interdomain interaction of rPrP (PREs around His139 and His176)” value at rPrP was “dramatically decreases the PREs”. Moreover, the “Effect on colocalization of PrP^C and GluN2B (PCC)” value in test [1] is recorded as “completely abolished colocalization”.
